{"source": "patent US4925831A", "about": "“Aminoalkyl naphthalenediols as host resistance enhancers against viral infection” (priority 1987, dated 1990)", "origin": "cited, not measured here", "test_system": "AIDS or ARC patients", "conditions": "result in words"}
{"substance": "recombinant IL-2: Protein made by white blood cells", "values": [{"measurement": "clinical efficacy", "result": "not encouraging"}]}
